Laboratory results published in publication PMC2964674.
For at least one entry, the source does not settle the construct or the ends of the probe. At least one verdict was read from the data and is not stated in words by the source. Protein sequences can lack the tags named with them.

Target: T1, EBNA1 DBD (Epstein-Barr virus) (UniProt P03211)
T1 sequence (looked up): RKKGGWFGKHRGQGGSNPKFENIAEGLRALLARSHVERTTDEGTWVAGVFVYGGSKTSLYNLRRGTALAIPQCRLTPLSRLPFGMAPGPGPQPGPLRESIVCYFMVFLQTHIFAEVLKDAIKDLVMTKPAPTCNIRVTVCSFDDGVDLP
Test: EMSA
Conditions: 246 nM DBD, 10 nM DNA, recombinant protein, residues 459-607, protein details: hexa-His, label: 32P

Row | Sequence | binding result (relatively high affinity) | binding result
1 | ATGGTAGAGGCAGCACATGCTACCTAACCT (double strand) [Motif 2] | binds | –
2 | GATCCGGATACAGATTAGGATAGCATATACTACCCA (double strand) [EBV FR] | – | binds
3 | GGATAGGATGTCACATACGAATTTTGAGGG (double strand) [MAP3K7IP2] | – | binds
4 | TGGATAATAAGTGTTGCCTCTTGGGTAACC (double strand) [Chr11.1] | binds | –
